Anti-infective test results gathered from many reports (values: NIAID ChemDB through PubChem).

All rows: cytotoxicity tests; cell line: CEM; method: MTT; read-out: CC50

CCn: concentration that lowers growth or viability of the cells by n%. Lines come from different laboratories, so protocols vary.

OB(O)c1ccc(/C=N\NC(=S)Nc2ccccc2)cc1 ; value: 105 µM
Nc1ccn([C@H]2C=C(F)[C@@H](CO)S2)c(=O)n1 ; value: >100 µM
Cc1cn([C@H]2C[C@H](N=[N+]=[N-])[C@@H](COP(=O)(Nc3cc(C(=O)NCCC(=N)N)n(C)c3)OC3CCCCC3)O2)c(=O)[nH]c1=O ; value: >200 µM
Nc1nc2c(ncn2C2CC(CCP(=O)(O)O)(C(F)(F)F)CO2)c(=O)[nH]1 ; value: >100 µM
CC(=N)CCNC(=O)c1cc(NC(=O)c2cc(NC(=O)c3cc(NP(=O)(OC[C@@H]4C=C[C@H](n5cc(C)c(=O)[nH]c5=O)O4)OC4CCCCC4)cn3C)cn2C)cn1C ; value: 120 µM
Nc1ncnc2c1ncn2CCOCP(=O)(O)O ; value: >100 µM
CCc1c(OCc2cccc3ccccc23)cc(C)oc1=O ; value: 4.4 µM
CCCCCCCCCCCCCCCCOP(=O)([O-])OCCC[N+](C)(C)C ; value: 6.2 µM
Cn1cc(NC(=O)c2cc(NC(=O)c3cc([N+](=O)[O-])cn3C)cn2C)cc1C(=O)NCCC#N ; value: 145 µM
CC(C)(C)OC(=O)Nc1cccc(B(O)O)c1 ; value: >250 µM
Nc1nc2c(ncn2[C@H]2C=C[C@@H](CO)C2)c(=O)o1 ; value: >500 µg/mL
O=C(O)c1ccc2ccc(/C=C/c3ccc(O)c(O)c3)nc2c1O ; value: >100 µM
O=C(Nc1ccc2ccc(C(=O)O)c(O)c2n1)c1ccccc1 ; value: >100 µM
Cc1cn([C@H]2C=C[C@@H](COP(=O)(O)N[C@@H](CC(=O)O)C(=O)O)O2)c(=O)[nH]c1=O ; value: 298 µM
O=C(NC1CC1)c1ccc(B(O)O)cc1 ; value: >250 µM
Nc1nc2c(ncn2[C@@H]2C=C(F)[C@H](CO)S2)c(=O)[nH]1 ; value: >100 µM
CC(C)(C)CC(C)(C)c1ccc(OCCOP(=O)([O-])OCCC[N+](C)(C)Cc2ccccc2)cc1 ; value: >100 µM
O=C(NCc1cccc(O)c1O)c1ccc2ccc(C(=O)O)c(O)c2n1 ; value: >100 µM
Nc1nc2c(ncn2[C@@H]2O[C@H](CO)[C@@H](O)[C@H]2O)c(=O)o1 ; value: 440 µg/mL
O=CN(CCC(=O)O)c1ccc(B(O)O)cc1 ; value: >250 µM
O=c1[nH]cnc2c1ncn2[C@@H]1C=C(F)[C@H](CO)S1 ; value: >100 µM
O=C1CSC(c2c(F)cccc2F)N1c1ccncc1 ; value: 284.4 µM
Nc1nc2c(ncn2[C@H]2OC[C@@](F)(C=CP(=O)(O)O)[C@H]2F)c(=O)[nH]1 ; value: >100 µM
Cc1cn([C@H]2C[C@H](N=[N+]=[N-])[C@@H](CO)O2)c(=O)[nH]c1=O ; value: >200 µM
Nc1ncnc2c1ncn2C1CC(/C=C/P(=O)(O)O)(C(F)(F)F)CO1 ; value: >100 µM
Cc1cc(N[C@@H](C)c2cccc3ccccc23)cc(=O)o1 ; value: 182 µM
CC(C)(C)NC(=O)[C@@H]1C[C@@H]2CCCC[C@@H]2CN1C[C@@H](OC(=O)COc1ccc(C[C@H](N)C(=O)O)cc1)[C@H](Cc1ccccc1)NC(=O)[C@H](CC(N)=O)NC(=O)c1ccc2ccccc2n1 ; value: >100 µM
Cc1cn([C@H]2C=C[C@@H](COP(=O)(Nc3cc(C(=O)NCCC(=N)N)n(C)c3)OC(C)C)O2)c(=O)[nH]c1=O ; value: >200 µM
O=c1[nH]cnc2c1ncn2[C@H]1C=C(F)[C@@H](CO)S1 ; value: >100 µM
Cc1cn([C@H]2C=C[C@@H](CO)O2)c(=O)[nH]c1=O ; value: 184 µM
O=C1CSC(c2c(F)cccc2F)N1c1cccc(Br)n1 ; value: ≥269.4 µM
Cc1cc(N(Cc2cccc3ccccc23)C(=O)C(Cl)Cl)cc(=O)o1 ; value: 50 µM
Nc1nc(=O)n([C@@H]2C=C(F)[C@H](CO)S2)cc1F ; value: >100 µM
OB(O)c1ccccc1 ; value: >250 µM
O=c1[nH]cnc2c1ncn2[C@H]1CC[C@@H](CO)O1 ; value: >500 µg/mL
Cc1cn([C@H]2C=C(F)[C@@H](CO)S2)c(=O)[nH]c1=O ; value: >100 µM
Cc1cn([C@H]2C=C[C@@H](CO)O2)c(=O)[nH]c1=O ; value: 268 µM
Cc1cn([C@H]2C[C@@H]3NC(NC#N)=NC[C@H]3O2)c(=O)[nH]c1=O ; value: >100 µg/mL
Cc1cc(N[C@@H](C)c2cccc3ccccc23)c(C(=O)C(Cl)Cl)c(=O)o1 ; value: 4.2 µM
Nc1ncnc2c1ncn2[C@@H]1OC[C@](CO)(CCP(=O)(O)O)[C@@H]1F ; value: 44 µM
COc1ccc(CNC(=O)Nc2ccc3ccc(C(=O)O)c(O)c3n2)cc1 ; value: >100 µM
Cc1c(O)cccc1C(=O)N[C@@H](CSc1ccccc1)[C@H](O)CN1C[C@H]2CCCC[C@H]2C[C@H]1C(=O)NC(C)(C)C ; value: >100 µM
Cn1cc(NC(=O)c2cc(NC(=O)c3cc([N+](=O)[O-])cn3C)cn2C)cc1C(=O)NCCC(=N)N ; value: 112 µM
Nc1ncnc2c1ncn2[C@H]1OC[C@@](F)(C=CP(=O)(O)O)[C@H]1F ; value: >100 µM
Cc1cc(S(=O)(=O)Cc2cccc3ccccc23)cc(=O)o1 ; value: 5.4 µM
Cc1cn([C@H]2C[C@H](NC(N)=O)[C@@H](CO)O2)c(=O)[nH]c1=O ; value: >100 µg/mL
Cc1cn([C@@H]2C=C(F)[C@H](CO)S2)c(=O)[nH]c1=O ; value: ≥100 µM
CC(C)(C)NC(=O)[C@@H]1C[C@@H]2CCCC[C@@H]2CN1C[C@@H](OC(=O)[C@H](Cc1ccccc1)NC(=O)OC(C)(C)C)[C@H](Cc1ccccc1)NC(=O)[C@H](CC(N)=O)NC(=O)c1ccc2ccccc2n1 ; value: >100 µM
Cc1cn([C@H]2C[C@H](N=[N+]=[N-])[C@@H](COP(=O)(Nc3cc(C(=O)Nc4cc(C(=O)Nc5cc(C(=O)NCCC#N)n(C)c5)n(C)c4)n(C)c3)OC3CCCCC3)O2)c(=O)[nH]c1=O ; value: 121 µM
Fc1cccc(F)c1C1SCc2nc3ccccc3n21 ; value: 50 µM
CC(C)(C)CC(C)(C)c1ccc(OCCOP(=O)([O-])OCC[N+](C)(C)Cc2ccccc2)cc1 ; value: >100 µM
CCCCCCCCCCCCCCCC(=O)OCC(COC(=O)CCCCCCCCCCCCCCC)OC(=O)CCC(=O)O[C@H](CN1C[C@H]2CCCC[C@H]2C[C@H]1C(=O)NC(C)(C)C)[C@H](Cc1ccccc1)NC(=O)[C@H](CC(N)=O)NC(=O)c1ccc2ccccc2n1 ; value: >100 µM
Cc1cn([C@H]2C=C[C@@H](COP(=O)(Nc3cc(C(=O)Nc4cc(C(=O)NCCC(=N)N)n(C)c4)n(C)c3)OC(C)C)O2)c(=O)[nH]c1=O ; value: >200 µM
CCCCCCCCCCCCCCCCOP(=O)([O-])OCC[N+](C)(C)Cc1ccccc1 ; value: 13.8 µM

The first 5 rows once more:

{"structure": "OB(O)c1ccc(/C=N\\NC(=S)Nc2ccccc2)cc1", "value": "105 µM"}
{"structure": "Nc1ccn([C@H]2C=C(F)[C@@H](CO)S2)c(=O)n1", "value": ">100 µM"}
{"structure": "Cc1cn([C@H]2C[C@H](N=[N+]=[N-])[C@@H](COP(=O)(Nc3cc(C(=O)NCCC(=N)N)n(C)c3)OC3CCCCC3)O2)c(=O)[nH]c1=O", "value": ">200 µM"}
{"structure": "Nc1nc2c(ncn2C2CC(CCP(=O)(O)O)(C(F)(F)F)CO2)c(=O)[nH]1", "value": ">100 µM"}
{"structure": "CC(=N)CCNC(=O)c1cc(NC(=O)c2cc(NC(=O)c3cc(NP(=O)(OC[C@@H]4C=C[C@H](n5cc(C)c(=O)[nH]c5=O)O4)OC4CCCCC4)cn3C)cn2C)cn1C", "value": "120 µM"}